The results in this text go back to article PMC5902452, “In silico optimization of a guava antimicrobial peptide enables combinatorial exploration for peptide design” (Nature Communications, 2018).

Peptide text beside a SMILES is read from it.

The series is described as follows: CD spectroscopy (secondary structure content). Type of series: physicochemical. The conditions noted are these: for α-helical content: pH 4, 25 °C, peptide 38 μM, from ellipticity at 222 nm.

For `CC[C@H](C)[C@H](NC(=O)[C@H](CCCNC(=N)N)NC(=O)[C@H](Cc1ccc(O)cc1)NC(=O)CNC(=O)[C@H](Cc1ccc(O)cc1)NC(=O)[C@H](CCCNC(=N)N)NC(=O)[C@H](CC(C)C)NC(=O)[C@H](C)NC(=O)[C@H](CCC(N)=O)NC(=O)[C@H](CCC(=O)O)NC(=O)[C@@H](NC(=O)[C@H](CCC(N)=O)NC(=O)[C@H](CCCNC(=N)N)NC(=O)[C@H](CCSC)NC(=O)[C@H](Cc1ccc(O)cc1)NC(=O)[C@H](CCC(N)=O)NC(=O)[C@@H](N)CCCNC(=N)N)[C@@H](C)CC)C(=O)N[C@@H](CO)C(=O)N[C@@H](CCCNC(=N)N)C(=O)N[C@@H](CCCNC(=N)N)C(N)=O` [Guavanin 2] (H-RQYMRQIEQALRYGYRISRR-NH2), the α-helical content runs as follows: (DPC micelles 20 mM) 39%; (SDS micelles 20 mM) 42%. The “secondary structure by CD” value (water, pH 7, 25 °C, peptide 33 μM) was “no defined secondary structure”.
